Experimental data: PubChem BioAssay AID1259414 (Drosophila RNAi Screening Center, 2018)
Screen: 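Genome-wide screen for host control of endosymbiont load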 (primary screen). Cells: Drosophila JW18 cells infected with Wolbachia. Reagent: long dsRNA against Drosophila genes, 0.25 µg dsRNA per well of a 384-well plate. Time to read-out: 5 days. Challenge: cells persistently infected with Wolbachia before knock-down; no added drug. Read-out: 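Imaged fluorescence in situ signal for Wolbachia 23S rRNA per DAPI-counted host cell, given as a robust z-score within each plate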. Reading the numbers: Wolbachia per cell robust z: higher = more Wolbachia per host cell than the plate typical. Active means: 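Active if absolute robust z reaches 1.5 in two or more of three replicates, leaving out multi- or no-target dsRNAs, genes unexpressed in JW18 and A1 wells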.
In all, the deposit lists about 24,000 reagents; shown is a random part of those with a known target gene and a result. Of all reagents, about 1,210 (5%) were called active. 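Inactive calls also include excluded dsRNAs with several or no targets, genes unexpressed in JW18, and well A1, regardless of score.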 Entries without a mark were called inactive. A plus sign joins genes that one reagent is predicted to hit. Reagent sequences are not shown.

gene	DRSC id	Wolbachia per cell robust z, rep 1	Wolbachia per cell robust z, rep 2	Wolbachia per cell robust z, rep 3
nudE	DRSC09000	0.106	-0.499	-5.06
nudE	DRSC10962	-0.348	-1.59	-0.938
nudE	DRSC30057	-0.585	0.832	0.137
Ir7e (Ionotropic receptor 7e)	DRSC18011	0.129	0.488	0.0891
PolD2 (DNA polymerase delta subunit 2)	DRSC08147	-0.125	-0.0918	-0.14
Dera (Deoxyribose-phosphate aldolase)	DRSC07207	0.497	-0.0413	-1.27
Dera (Deoxyribose-phosphate aldolase)	DRSC21336	0.347	0.421	0.58
Dera (Deoxyribose-phosphate aldolase)	DRSC26996	-0.109	-1.14	-0.0409
CG3630	DRSC18499	1.07	-0.637	1.92
CG3630	DRSC28903	-1.57	0.667	-0.153
CrebA (Cyclic-AMP response element binding protein A)	DRSC11122	-0.903	-2.39	-4.08
CrebA (Cyclic-AMP response element binding protein A)	DRSC40830	-1.06	-0.665	-2.69
shf + Coq7	DRSC18448	-1.13	-0.291	0.162
CG10508	DRSC11612	1.13	0.204	0.377
CG10508	DRSC11613	0.0898	-0.161	0.366
CG13840	DRSC23279	0.668	0.536	0.881
CG13840	DRSC28749	0.435	0.447	-2.31
Cpr78Cb (Cuticular protein 78Cb)	DRSC11847	0.698	-3.07	1.59
Cpr78Cb (Cuticular protein 78Cb)	DRSC26957	0.909	-0.355	1.39
CG7886	DRSC16333	-5.06	0.233	0.99
CG12974	DRSC11684	0.138	0.253	-4.93
CG32040	DRSC22459	1.62	0.802	0.551
GCS2alpha (Glucosidase 2 alpha subunit)	DRSC21036	-2.56	-0.965	-0.701
smu (retired record)	DRSC18679	0.549	0.582	0.157
smu (retired record)	DRSC25729	-0.462	-0.969	-0.795
CG2614	DRSC02711	0.49	-1.52	-1.34
JMJD4 (Jumonji domain containing 4)	DRSC03025	0.686	-0.0605	0.7
JMJD4 (Jumonji domain containing 4)	DRSC25368	-2.09	1.69	-0.687
CG30349	DRSC06421	0.229	0.0913	-0.373
CG30349	DRSC06839	1.41	-0.145	-0.759
CG30349	DRSC28739	-0.237	0.363	-0.137
BomS6 (Bomanin Short 6)	DRSC21676	0.00728	0.962	-1.13
BomS6 (Bomanin Short 6)	DRSC26792	-0.114	0.754	0.148
hgo (homogentisate 1,2-dioxygenase)	DRSC03544	-0.519	-0.752	-0.683
asRNA:CR31845 (antisense RNA:CR31845)	DRSC23074	-1.81	-0.694	-0.433
Obp99a (Odorant-binding protein 99a)	DRSC15303	-1.34	0.0307	0.281
CG6000	DRSC15938	-0.423	0.48	0.152
CG31161	DRSC16144	-3.99	0.367	1.22
CG31161	DRSC25099	0.714	1.11	0.972
CG6236	DRSC15999	1.27	-0.169	-1.52
BomS2 (Bomanin Short 2)	DRSC21488	-1.25	-0.873	-1.34
CG9184	DRSC08636	-3.04	-2.16	-1.68
CG9184	DRSC22184	1.12	-1.57	-1.04
CG9184	DRSC23765	0.604	1.22	1.76
CG9701	DRSC11093	-2.02	-1.65	-1.92
CG9701	DRSC26332	0.988	-0.553	0.508
RpLP0-like (Ribosomal protein LP0-like)	DRSC06424	-8.04	0.305	-0.712
RpLP0-like (Ribosomal protein LP0-like)	DRSC28206	-0.115	0.0293	-0.47
CG8321	DRSC07148	-8.19	-0.992	1.1
for (foraging)	DRSC00195	-0.524	-0.298	0.127
for (foraging)	DRSC00818	-1.38	-2.25	1.25
for (foraging)	DRSC25103	0.595	-0.39	-0.393
for (foraging)	DRSC36604	-0.0882	-3.12	-0.727
CG32812	DRSC18478	0.479	0.4	0.199
Muc68D (Mucin 68D)	DRSC10569	-0.0312	0.428	0.177
CG8202	DRSC16396	0.906	-0.0263	-2.8
VepD (Ventrally-expressed protein D)	DRSC22318	0.456	-1.05	-0.921
VepD (Ventrally-expressed protein D)	DRSC27653	-1.19	-1.27	-1.04
RpS28-like (Ribosomal protein S28-like)	DRSC38760	0.11	0.719	-1.33
Efhc1.1 (EF-hand domain containing 1.1)	DRSC20135	-0.551	-0.0277	0.342
CG43373 + CG42514	DRSC26599	0.502	0.163	0.343
spn-B (spindle B)	DRSC17063	0.713	1.41	-9.33
spn-B (spindle B)	DRSC26699	-0.335	-0.00839	-0.862
Ir68b (Ionotropic receptor 68b)	DRSC10251	0.668	0.543	-2.84
Adgf-A2 (Adenosine deaminase-related growth factor A2)	DRSC09507	0.508	0.0631	-0.295
Gr10a (Gustatory receptor 10a)	DRSC18897	0.244	0.386	-1.02
Gr10a (Gustatory receptor 10a)	DRSC22792	-1.5	-0.676	-1.92
Gr10a (Gustatory receptor 10a)	DRSC26071	-0.25	-0.237	0.765

Laid out differently: 8 of the entries above
gene | DRSC id | Wolbachia per cell robust z, rep 1 | Wolbachia per cell robust z, rep 2 | Wolbachia per cell robust z, rep 3
CG7886 | DRSC16333 | -5.06 | 0.233 | 0.99
CG12974 | DRSC11684 | 0.138 | 0.253 | -4.93
CG32040 | DRSC22459 | 1.62 | 0.802 | 0.551
GCS2alpha (Glucosidase 2 alpha subunit) | DRSC21036 | -2.56 | -0.965 | -0.701
smu (retired record) | DRSC18679 | 0.549 | 0.582 | 0.157
smu (retired record) | DRSC25729 | -0.462 | -0.969 | -0.795
CG2614 | DRSC02711 | 0.49 | -1.52 | -1.34
JMJD4 (Jumonji domain containing 4) | DRSC03025 | 0.686 | -0.0605 | 0.7
